# Source: patent publication US6974685B2, “High production method of prenyl alcohol using saccharomyces cells” (Toyota Jidosha Kabushiki Kaisha 1, priority 2000, dated 2005)
# Tests used:
# Type in all cases: cell-based
# [1] = test system: Saccharomyces cerevisiae strain ATCC 64031; experiment: Effect of tocopherol on prenyl alcohol secretory production, GC/MS (Example 5, Table 1)
# [2] = test system: K 4104 Saccharomyces cerevisiae; experiment: Test-tube culture in YM or YM + 5% glucose + 1% soybean oil (Example 7)
# [3] = test system: IFO 0215 Saccharomyces unisporus; experiment: Test-tube culture with ergosterol and squalene synthesis inhibitor SQAD, with or without glucose and soybean oil (Example 8)
# [4] = test system: IFO 0622 Candida glabrata; experiment: as above
# [5] = test system: IFO 0717 Yarrowia lopolytica; experiment: as above
# [6] = test system: IFO 0948 Komagataella pastoris; experiment: as above
# [7] = test system: IFO 0974 Kuraishia capsulata; experiment: as above
# [8] = test system: IFO 1892 Saccharomyces kluyeri; experiment: as above
# [9] = test system: IFO 3032 Baccilus amyloliquefaciens; experiment: Control culture of bacterial strain in KB medium (Example 11, Table 14); conditions: treated with phosphatase
# [10] = test system: IFO 3762 Staphylococcus epidermidis; experiment: as above; conditions: treated with phosphatase
# [11] = YM + 5% glucose + 1% soybean oil, 3 days
# [12] = YM + 5% glucose + 1% soybean oil, 6 days
# [13] = YM + 4 mg/L ergosterol, SQAD 0 mg/L, 3 days
# [14] = YM + 4 mg/L ergosterol, SQAD 0 mg/L, 7 days
# [15] = YM + 4 mg/L ergosterol, SQAD 1 mg/L, 3 days
# [16] = YM + 4 mg/L ergosterol, SQAD 1 mg/L, 7 days
# [17] = YM + 4 mg/L ergosterol, SQAD 20 mg/L, 3 days
# [18] = YM + 4 mg/L ergosterol, SQAD 20 mg/L, 7 days
# [19] = YM + 5% glucose + 1% soybean oil + 4 mg/L ergosterol, SQAD 0 mg/L, 3 days
# [20] = YM + 5% glucose + 1% soybean oil + 4 mg/L ergosterol, SQAD 0 mg/L, 7 days
# [21] = YM + 5% glucose + 1% soybean oil + 4 mg/L ergosterol, SQAD 1 mg/L, 3 days
# [22] = YM + 5% glucose + 1% soybean oil + 4 mg/L ergosterol, SQAD 1 mg/L, 7 days
# [23] = YM + 5% glucose + 1% soybean oil + 4 mg/L ergosterol, SQAD 20 mg/L, 3 days
# [24] = YM + 5% glucose + 1% soybean oil + 4 mg/L ergosterol, SQAD 20 mg/L, 7 days
compound,measurement,setting,value
"CC(C)=CCCC(C)=CCCC(C)=CCO [FOH, farnesol]",Cell fraction,[1]; Tocopherol 0 μM,7034 μg/L of culture solution
same,Supernatant fraction,[1]; Tocopherol 0 μM,3102 μg/L of culture solution
same,Cell fraction,[1]; Tocopherol 20 μM,5469 μg/L of culture solution
same,Supernatant fraction,[1]; Tocopherol 20 μM,3819 μg/L of culture solution
same,Cell fraction,[1]; Tocopherol 200 μM,2695 μg/L of culture solution
same,Supernatant fraction,[1]; Tocopherol 200 μM,6741 μg/L of culture solution
same,Cell fraction,[2]; [11],241.1 μg/L of culture solution
same,Supernatant fraction,[2]; [11],281.0 μg/L of culture solution
same,Cell fraction,[2]; [12],155.3 μg/L of culture solution
same,Supernatant fraction,[2]; [12],338.2 μg/L of culture solution
same,Cell fraction,[2]; YM medium (Difco),15.8 μg/L of culture solution
same,Supernatant fraction,[2]; YM medium (Difco),0.0 μg/L of culture solution
same,Cell fraction,[3]; [13],0.0 μg/L of culture solution
same,Supernatant fraction,[3]; [13],0.0 μg/L of culture solution
same,Cell fraction,[3]; [14],0.0 μg/L of culture solution
same,Supernatant fraction,[3]; [14],0.0 μg/L of culture solution
same,Cell fraction,[3]; [15],0.0 μg/L of culture solution
same,Supernatant fraction,[3]; [15],0.0 μg/L of culture solution
same,Cell fraction,[3]; [16],0.0 μg/L of culture solution
same,Supernatant fraction,[3]; [16],0.0 μg/L of culture solution
same,Cell fraction,[3]; [17],0.0 μg/L of culture solution
same,Supernatant fraction,[3]; [17],3.2 μg/L of culture solution
same,Cell fraction,[3]; [18],0.0 μg/L of culture solution
same,Supernatant fraction,[3]; [18],0.0 μg/L of culture solution
same,Cell fraction,[3]; [19],0.0 μg/L of culture solution
same,Supernatant fraction,[3]; [19],8.2 μg/L of culture solution
same,Cell fraction,[3]; [20],0.0 μg/L of culture solution
same,Supernatant fraction,[3]; [20],14.8 μg/L of culture solution
same,Cell fraction,[3]; [21],0.0 μg/L of culture solution
same,Supernatant fraction,[3]; [21],5.2 μg/L of culture solution
same,Cell fraction,[3]; [22],0.0 μg/L of culture solution
same,Supernatant fraction,[3]; [22],17.5 μg/L of culture solution
same,Cell fraction,[3]; [23],16.9 μg/L of culture solution
same,Supernatant fraction,[3]; [23],68.4 μg/L of culture solution
same,Cell fraction,[3]; [24],255.6 μg/L of culture solution
same,Supernatant fraction,[3]; [24],433.7 μg/L of culture solution
same,Cell fraction,[4]; [13],1.9 μg/L of culture solution
same,Supernatant fraction,[4]; [13],3.1 μg/L of culture solution
same,Cell fraction,[4]; [14],0.0 μg/L of culture solution
same,Supernatant fraction,[4]; [14],0.0 μg/L of culture solution
same,Cell fraction,[4]; [15],1.4 μg/L of culture solution
same,Supernatant fraction,[4]; [15],3.5 μg/L of culture solution
same,Cell fraction,[4]; [16],0.0 μg/L of culture solution
same,Supernatant fraction,[4]; [16],0.0 μg/L of culture solution
same,Cell fraction,[4]; [17],212.0 μg/L of culture solution
same,Supernatant fraction,[4]; [17],243.5 μg/L of culture solution
same,Cell fraction,[4]; [18],5.5 μg/L of culture solution
same,Supernatant fraction,[4]; [18],0.0 μg/L of culture solution
same,Cell fraction,[4]; [19],28.8 μg/L of culture solution
same,Supernatant fraction,[4]; [19],106.1 μg/L of culture solution
same,Cell fraction,[4]; [20],43.7 μg/L of culture solution
same,Supernatant fraction,[4]; [20],378.3 μg/L of culture solution
same,Cell fraction,[4]; [21],9.7 μg/L of culture solution
same,Supernatant fraction,[4]; [21],149.2 μg/L of culture solution
same,Cell fraction,[4]; [22],133.3 μg/L of culture solution
same,Supernatant fraction,[4]; [22],530.0 μg/L of culture solution
same,Cell fraction,[4]; [23],331.6 μg/L of culture solution
same,Supernatant fraction,[4]; [23],12186.9 μg/L of culture solution
same,Cell fraction,[4]; [24],2750.6 μg/L of culture solution
same,Supernatant fraction,[4]; [24],22147.1 μg/L of culture solution
same,Cell fraction,[5]; [13],0.0 μg/L of culture solution
same,Supernatant fraction,[5]; [13],0.0 μg/L of culture solution
same,Cell fraction,[5]; [14],0.0 μg/L of culture solution
same,Supernatant fraction,[5]; [14],0.0 μg/L of culture solution
same,Cell fraction,[5]; [15],0.0 μg/L of culture solution
same,Supernatant fraction,[5]; [15],1.3 μg/L of culture solution
same,Cell fraction,[5]; [16],1.5 μg/L of culture solution
same,Supernatant fraction,[5]; [16],2.1 μg/L of culture solution
same,Cell fraction,[5]; [17],39.7 μg/L of culture solution
same,Supernatant fraction,[5]; [17],39.7 μg/L of culture solution
same,Cell fraction,[5]; [18],10.6 μg/L of culture solution
same,Supernatant fraction,[5]; [18],10.6 μg/L of culture solution
same,Cell fraction,[5]; [19],6.7 μg/L of culture solution
same,Supernatant fraction,[5]; [19],8.7 μg/L of culture solution
same,Cell fraction,[5]; [20],0.0 μg/L of culture solution
same,Supernatant fraction,[5]; [20],95.3 μg/L of culture solution
same,Cell fraction,[5]; [21],165.3 μg/L of culture solution
same,Supernatant fraction,[5]; [21],100.1 μg/L of culture solution
same,Cell fraction,[5]; [22],0.0 μg/L of culture solution
same,Supernatant fraction,[5]; [22],405.4 μg/L of culture solution
same,Cell fraction,[5]; [23],882.1 μg/L of culture solution
same,Supernatant fraction,[5]; [23],983.3 μg/L of culture solution
same,Cell fraction,[5]; [24],1025.1 μg/L of culture solution
same,Supernatant fraction,[5]; [24],6812.9 μg/L of culture solution
same,Cell fraction,[6]; [13],0.0 μg/L of culture solution
same,Supernatant fraction,[6]; [13],0.0 μg/L of culture solution
same,Cell fraction,[6]; [14],0.0 μg/L of culture solution
same,Supernatant fraction,[6]; [14],0.0 μg/L of culture solution
same,Cell fraction,[6]; [15],0.0 μg/L of culture solution
same,Supernatant fraction,[6]; [15],0.0 μg/L of culture solution
same,Cell fraction,[6]; [16],0.0 μg/L of culture solution
same,Supernatant fraction,[6]; [16],0.0 μg/L of culture solution
same,Cell fraction,[6]; [17],3.4 μg/L of culture solution
same,Supernatant fraction,[6]; [17],3.4 μg/L of culture solution
same,Cell fraction,[6]; [18],0.0 μg/L of culture solution
same,Supernatant fraction,[6]; [18],0.0 μg/L of culture solution
same,Cell fraction,[6]; [19],13.8 μg/L of culture solution
same,Supernatant fraction,[6]; [19],73.5 μg/L of culture solution
same,Cell fraction,[6]; [20],4.3 μg/L of culture solution
same,Supernatant fraction,[6]; [20],101.6 μg/L of culture solution
same,Cell fraction,[6]; [21],22.9 μg/L of culture solution
same,Supernatant fraction,[6]; [21],82.2 μg/L of culture solution
same,Cell fraction,[6]; [22],53.4 μg/L of culture solution
same,Supernatant fraction,[6]; [22],569.8 μg/L of culture solution
same,Cell fraction,[6]; [23],608.4 μg/L of culture solution
same,Supernatant fraction,[6]; [23],2956.2 μg/L of culture solution
same,Cell fraction,[6]; [24],537.5 μg/L of culture solution
same,Supernatant fraction,[6]; [24],5513.3 μg/L of culture solution
same,Cell fraction,[7]; [13],0.0 μg/L of culture solution
same,Supernatant fraction,[7]; [13],0.0 μg/L of culture solution
same,Cell fraction,[7]; [14],0.0 μg/L of culture solution
same,Supernatant fraction,[7]; [14],0.0 μg/L of culture solution
same,Cell fraction,[7]; [15],0.0 μg/L of culture solution
same,Supernatant fraction,[7]; [15],0.0 μg/L of culture solution
same,Cell fraction,[7]; [16],0.0 μg/L of culture solution
same,Supernatant fraction,[7]; [16],0.0 μg/L of culture solution
same,Cell fraction,[7]; [17],0.0 μg/L of culture solution
same,Supernatant fraction,[7]; [17],0.0 μg/L of culture solution
same,Cell fraction,[7]; [18],0.0 μg/L of culture solution
same,Supernatant fraction,[7]; [18],0.0 μg/L of culture solution
same,Cell fraction,[7]; [19],3.3 μg/L of culture solution
same,Supernatant fraction,[7]; [19],24.8 μg/L of culture solution
same,Cell fraction,[7]; [20],3.2 μg/L of culture solution
same,Supernatant fraction,[7]; [20],167.5 μg/L of culture solution
same,Cell fraction,[7]; [21],16.1 μg/L of culture solution
same,Supernatant fraction,[7]; [21],1061.9 μg/L of culture solution
same,Cell fraction,[7]; [22],24.8 μg/L of culture solution
same,Supernatant fraction,[7]; [22],713.7 μg/L of culture solution
same,Cell fraction,[7]; [23],149.2 μg/L of culture solution
same,Supernatant fraction,[7]; [23],2022.7 μg/L of culture solution
same,Cell fraction,[7]; [24],362.1 μg/L of culture solution
same,Supernatant fraction,[7]; [24],8268.5 μg/L of culture solution
same,Cell fraction,[8]; [13],0.0 μg/L of culture solution
same,Supernatant fraction,[8]; [13],0.0 μg/L of culture solution
same,Cell fraction,[8]; [14],0.0 μg/L of culture solution
same,Supernatant fraction,[8]; [14],0.0 μg/L of culture solution
same,Cell fraction,[8]; [15],0.0 μg/L of culture solution
same,Supernatant fraction,[8]; [15],0.0 μg/L of culture solution
same,Cell fraction,[8]; [16],0.0 μg/L of culture solution
same,Supernatant fraction,[8]; [16],0.0 μg/L of culture solution
same,Cell fraction,[8]; [17],0.0 μg/L of culture solution
same,Supernatant fraction,[8]; [17],0.0 μg/L of culture solution
same,Cell fraction,[8]; [18],0.0 μg/L of culture solution
same,Supernatant fraction,[8]; [18],0.0 μg/L of culture solution
same,Cell fraction,[8]; [19],3.7 μg/L of culture solution
same,Supernatant fraction,[8]; [19],70.4 μg/L of culture solution
same,Cell fraction,[8]; [20],0.0 μg/L of culture solution
same,Supernatant fraction,[8]; [20],158.5 μg/L of culture solution
same,Cell fraction,[8]; [21],2.3 μg/L of culture solution
same,Supernatant fraction,[8]; [21],51.4 μg/L of culture solution
same,Cell fraction,[8]; [22],5.0 μg/L of culture solution
same,Supernatant fraction,[8]; [22],188.3 μg/L of culture solution
same,Cell fraction,[8]; [23],16.5 μg/L of culture solution
same,Supernatant fraction,[8]; [23],62.9 μg/L of culture solution
same,Cell fraction,[8]; [24],227.8 μg/L of culture solution
same,Supernatant fraction,[8]; [24],935.3 μg/L of culture solution
same,Cell fraction,[9],0.0 μg/L of culture solution
same,Supernatant fraction,[9],4.1 μg/L of culture solution
same,Cell fraction,[10],0.0 μg/L of culture solution
same,Supernatant fraction,[10],6.1 μg/L of culture solution
